Percent effect of library compounds

Data taken from ChEMBL document CHEMBL3988442, “University of Dundee, Small-Polar-MMV Screening Library” (2021).

Mtb glucose medium: 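Phenotypic screen: M. tuberculosis growth, glucose 7H9 medium, 3 days; the read-out is not stated. Compounds at 50 µM. The record gives no direction; compounds that gave an IC50 in retests scored well above the rest, so higher reads as more growth inhibition. Size under these conditions: about 69,000 compounds, about 760 of them at 50% or above in at least one test.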
Mtb cholesterol medium: 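Whole-cell growth test on Mycobacterium tuberculosis, read after 4 days in a medium based on cholesterol and the lipid DPPC; the read-out is not stated. Compounds at 50 µM. Higher reads as more growth inhibition (inferred: compounds with an IC50 in retests scored well above the rest). About 69,000 compounds were tested under these conditions; 0.54% (about 370) showed 50% or more at least once.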

Each number is a percent effect as filed. The controls that fix the scale are not given in the record; negative values are as filed. The entries come from a sample that favours strong results. Two or more numbers in one place are separate tests of the same structure; such repeats can differ widely. A dash means the value is not listed here; it may have been measured.

compound,Mtb glucose medium,Mtb cholesterol medium
CN1CCN(c2cc(CNC(=O)c3ccsc3)ccn2)CC1,19.78,6.357
CN(C)C(=O)c1nnn(-c2ccc(Br)cc2)n1,64.95,-
O=C(c1[nH]nc(C2CC2)c1Cl)N1CCN(C2CC2)CC1,-,12.16
Cc1nn(C)c2cnn(CC(=O)NCc3ccc(F)cc3)c12,-30.55,-
CC(C)(C(=O)NCC(=O)N1CCCC1)c1ccccc1F,-11.31,0.9573
CC(C)(C)c1n[nH]cc1CNCC1CCN(CC(F)(F)F)C1.Cl (configuration not stated),12.44 and -4.013,10.52
COc1ncccc1CNC(=O)c1cccc(C)n1,-4.576,-
O=C(Nc1ccccn1)NC(CCCO)c1ccccc1 (configuration not stated),-13.7,10.1
COCc1noc(-c2nn(-c3ccccc3F)c3c2CCC3)n1,45.95,-
CCc1nc(C2CCCN(C(=O)c3ccc(F)cc3)C2)no1 (configuration not stated),14.78,-1.099
CC(C)N1CC2(CCCN(Cc3noc(C4CCCC4)n3)C2)CCC1=O (configuration not stated),-,57.88 and 9.808
COc1cc(Cl)c(C)cc1NC(=O)CNc1ccn(CC(N)=O)n1,8.898,-
COc1cccc(-c2ccc(CNC(=O)c3ccc(=O)n(C)c3)cc2)c1,-,13.53
Cc1cccnc1N1CCN(C(=O)C(C)n2ccnc2C(C)C)CC1 (configuration not stated),-0.07039 and -25.8,-
CCCc1cncnc1N1CCC(NCc2ccncc2)CC1,-25.35 and -7.79,-6.838
CC(C)c1cc(C(=O)N2CCCN(Cc3ccccc3)CC2)n[nH]1,36.59 and 4.328,-
CNC(=O)CN(C)c1cncc(OCC(C)C)n1,-8.179 and 6.516,1.899
COc1ncc(C(=O)NCc2ccc(Br)cc2)cn1,19.36,-2.002
O=C(CN1CCc2ccccc21)Nc1ccc(OC(F)F)cc1,-0.5754 and 5.752,16.63
COc1cn(CC(=O)N2CCN(c3ccc(F)cc3)CC2)c(C)cc1=O,7.124,0.2278
CC(C)N1CC[C@H](c2nc3ccc(C(F)(F)F)cc3[nH]2)C1,-2.745 and 17.79,-
Cc1ncc(-c2ccncc2)c(C2CCCN(C(=O)c3ccno3)C2)n1 (configuration not stated),-,-22.92 and -22.84
O=S(=O)(CCc1ccccc1Cl)CC(O)CO (configuration not stated),-7.157 and -6.903,0.8433
Fc1cccc(-c2nnn3c2COC(CNc2ncccn2)C3)c1 (configuration not stated),-24.79,-
CCc1nc(CN(C)Cc2nnc(-c3cccs3)o2)cs1,53.77 and 37.01,-
Cc1nc(CN(C)C2CCCN(c3cccnn3)C2)nc2ccccc12 (configuration not stated),11.96,-
Cc1nc(C2CCN(C(=O)c3cc(C4CC4)[nH]n3)CC2)no1,-7.492,-
COC(=O)c1cnc(/C=C/c2ccc(C(=O)O)cc2)s1,-,67.1
CC(Cn1cccn1)NCc1csc(-c2ccc(F)cc2)n1 (configuration not stated),36.71,-
COCCCSc1ccc(NCc2cscn2)cc1,26.24 and 31.18,-
Cc1ccc(N(C)CC(O)COCc2ccccc2)c(C)c1 (configuration not stated),-,13.99
O=C(c1cc(Cl)c(Br)[nH]1)N1CCN(Cc2ccco2)CC1,-19.27,-16.93
O=C(c1cc2c([nH]c1=O)CCC2)N1CCCC1c1ccc(F)cc1 (configuration not stated),-,4.406
CCN1CCN(CCNC(=O)c2ccn(-c3ccc(F)cc3)n2)CC1,-13.99,-16.64
Cc1nnc(CN(C)C2CCN(c3cccc(-c4cscn4)c3)CC2)o1,17.94,-
CNC(=O)c1cccc(NC(=O)c2ccnc(N(C)C)c2)c1C,14.15 and 5.609,5.235
CCCn1c(N2CCCC(C)C2)nc2c(C)nn(C)c2c1=O (configuration not stated),60.34,-
COc1cc(NC(=O)NC(C2CC2)C2CC2)ccc1N1CCOC1=O,31.82,-
FC1(F)CCN(Cc2ccncc2)CC12CCN(c1cnccn1)C2.O=C(O)C(F)(F)F.O=C(O)C(F)(F)F.O=C(O)C(F)(F)F (configuration not stated),-,6.976
O[C@@H]1CN(c2nc3ccccc3s2)CC[C@H]1c1ccc2c(c1)OCO2,20.24,27.13
COCCCN(Cc1ccncc1)C(=O)CSc1ccc(F)cc1,-16.39,-
CC(=O)N1CCOC(Cc2cccc(C(F)(F)F)c2)C1 (configuration not stated),33.46 and 3.288,-
CCOc1ccc2c(c1)C=C(C(=O)NC(C)Cn1cccn1)CO2 (configuration not stated),-18.12,-25.38
Cc1nc(CNC(=O)[C@@H]2CCCN2C(=O)OC(C)(C)C)cs1,9.506,-13.22
O=C(NCC1CCCO1)N1CCN(Cc2ccc3c(c2)CCO3)CC1 (configuration not stated),5.052,8.219
Cc1ccc(CC(=O)N2CCn3cc(Cn4cncn4)nc3C2)cc1,3.87 and 13.87,-
c1ccc(-c2nc(CCNCc3cccnc3)co2)cc1,-,4.346 and -1.059
NC(=O)c1ccc(-n2ccnc2C2CC2)cc1N1CCCC1,-,-7.667
CCC(CC)CN(C)Cc1nc(-c2ccccc2NS(C)(=O)=O)oc1C,-,16.11
Cc1cnc(C(=O)N2CCCC(c3nccn3Cc3cscn3)C2)cn1 (configuration not stated),6.7,-
CCOc1cccc(CSC(C)c2nc(C)no2)n1 (configuration not stated),18.78,-
CN(Cc1cccc(F)c1)S(=O)(=O)N1CCOCC1,-2.845 and -5.532,-7.969
CCNc1ccnc(N2Cc3cnn(Cc4ccc(F)cc4)c3C2)n1,-,50.87 and 25.86
CCc1csc(C2CCCN(C(=O)c3cc(C4CC4)[nH]n3)C2)n1 (configuration not stated),50.71,-
OC(COCc1ccccc1)CSc1nnc2ccccn12 (configuration not stated),-1.335,-4.419
Fc1ccc(-c2noc([C@@H]3Cc4nc[nH]c4CN3)n2)cc1,5.683 and -3.402,-
Nc1nnnn1NCc1cccc2ccccc12,29.6,-
Cc1csc2ncc(-c3ccnc(N4CCCC4)n3)c(=O)n12,55.68,-
CC(O)(CNc1ccc(Cl)c(C#N)n1)c1ccccc1 (configuration not stated),58.3,30.46
Cc1cccnc1NC(=O)C1(n2cnnn2)CCCCC1,7.531,-
COc1ccc(C[C@H]2CN(C(=O)c3ccncc3)CC[C@@H]2OC)cc1.O=C(O)C(F)(F)F,-27.32,-19.01
O=C(Cc1ccccc1Cl)N1CCN(CC(O)COCCO)CC1 (configuration not stated),17.14,-
[H][C@]12CC[C@]([H])(CN(Cc3ccc(-n4cccn4)cc3)C1)N(CCC)C2,81.87,67.49
CCCn1nccc1C(=O)Nc1nc(C)c(C)s1,50.94 and 5.993,-
FC1(F)CCNCC12CCN(c1ccccn1)C2 (configuration not stated),-,-28.06
CC(C)CCOc1ccc(C(C)NC(=O)Cn2cccnc2=O)cc1 (configuration not stated),-,51.01 and -1.017
COc1cccc2c1OCC(C(=O)N1CCC(N3CCOC3=O)CC1)C2 (configuration not stated),8.73,-
O=C(CCn1cccn1)NCCOc1cccc(Cl)c1,-5.477,-